Laboratory results reported in paper PMC2887854.
pKd: −log10 of the molar value.

Biological target: protective antigen (PA83, 83 kDa), monomeric (Bacillus anthracis)

Compared with “TEM8 extracellular vWA domain (residues 38-220) with the C177A mutation, called WT (from UniProt Q9H6X2-1 38-220)”, “TEM8 vWA domain (38-220) T87S, C177A (from UniProt Q9H6X2-1 38-220)” is 0.23 log units lower in pKd: 7.53 for the first, 7.30 for the second.

First: TEM8 vWA domain (38-220) R88Q, C177A (from UniProt Q9H6X2-1 38-220)
Second: TEM8 vWA domain (38-220) M1 (L56A and H57N), C177A (from UniProt Q9H6X2-1 38-220)
The pKd of the first is 1.50 log units lower: 6.78 for the first, 8.28 for the second.

First: TEM8 vWA domain (38-220) L56A, C177A (from UniProt Q9H6X2-1 38-220)
Second: TEM8 vWA domain (38-220) K51A, C177A (from UniProt Q9H6X2-1 38-220)
The pKd of the first is 4.11 log units higher: 8.35 for the first, 4.24 for the second. The first binds more tightly here.

Going from “TEM8 extracellular vWA domain (residues 38-220) with the C177A mutation, called WT (from UniProt Q9H6X2-1 38-220)” to “TEM8 vWA domain (38-220) T87S, C177A (from UniProt Q9H6X2-1 38-220)”, the koff rises from 0.00014 s⁻¹ to 0.000259 s⁻¹ (1.9-fold).

Going from “TEM8 vWA domain (38-220) R88Q, C177A (from UniProt Q9H6X2-1 38-220)” to “TEM8 vWA domain (38-220) M1 (L56A and H57N), C177A (from UniProt Q9H6X2-1 38-220)”, the koff falls from 0.000621 s⁻¹ to 4.46e-05 s⁻¹ (14-fold).

Going from “TEM8 vWA domain (38-220) L56A, C177A (from UniProt Q9H6X2-1 38-220)” to “TEM8 vWA domain (38-220) K51A, C177A (from UniProt Q9H6X2-1 38-220)”, the koff rises from 6.6e-05 s⁻¹ to 0.00527 s⁻¹ (80-fold).

“TEM8 extracellular vWA domain (residues 38-220) with the C177A mutation, called WT (from UniProt Q9H6X2-1 38-220)” and “TEM8 vWA domain (38-220) T87S, C177A (from UniProt Q9H6X2-1 38-220)” are within 1.5-fold of each other in kon: 5460 M⁻¹ s⁻¹ for the first, 6110 M⁻¹ s⁻¹ for the second.

Compared with “TEM8 vWA domain (38-220) R88Q, C177A (from UniProt Q9H6X2-1 38-220)”, “TEM8 vWA domain (38-220) M1 (L56A and H57N), C177A (from UniProt Q9H6X2-1 38-220)” is 2.3-fold higher in kon: 3730 M⁻¹ s⁻¹ for the first, 8660 M⁻¹ s⁻¹ for the second.

First: TEM8 vWA domain (38-220) L56A, C177A (from UniProt Q9H6X2-1 38-220)
Second: TEM8 vWA domain (38-220) K51A, C177A (from UniProt Q9H6X2-1 38-220)
The kon of the first is 160-fold higher: 14900 M⁻¹ s⁻¹ for the first, 93.6 M⁻¹ s⁻¹ for the second.
